Results on two compounds are retold here after PMC10222646 (Microorganisms, 2023).

The subject of series [1] is human erythrocytes. The series can be described thus: Permeability and stability in human erythrocytes (RBC and iRBC).
Series [2] relates to macrophage-like cells differentiated from THP-1. The series can be described thus: MTT cytotoxicity assay, macrophage derived from THP-1. As to conditions: read-out: LC50, 72 h. In general terms: Formazan colour is commonly taken as a measure of viable cells.

Take `C[As](=O)(O)CC[C@H](N)C(=O)O` [AST, 2-amino-4-(hydroxymethylarsinoyl)butanoate]: the “total cellular arsenic levels in RBC and iRBC” value in series [1] (100 µM AST, 48 h, control subtracted, Figure 6 inset) was “up to 0.006 nmol/mg dry weight”. Also, the “predominant arsenic species in the culture medium of erythrocytes” value in series [1] (HPLC-ICP-MS) is recorded as “nearly exclusively AST”. Further, in series [1] (regardless of malaria infection), the uptake by erythrocytes entry is on record as “took up little AST”.
Take Sodium (meta)arsenite: the CC50 in series [2] was 100 µM.
